Reference: US7189724B2, “Quinoxaline derivatives having antiviral activity” (Valeant Research and Development, priority 2003, dated 2007)

Amino acid sequences for entries named in this document (tags omitted). Residues count along the entry.
UniProt Q9WMX2, 2420-3010 limits assumed: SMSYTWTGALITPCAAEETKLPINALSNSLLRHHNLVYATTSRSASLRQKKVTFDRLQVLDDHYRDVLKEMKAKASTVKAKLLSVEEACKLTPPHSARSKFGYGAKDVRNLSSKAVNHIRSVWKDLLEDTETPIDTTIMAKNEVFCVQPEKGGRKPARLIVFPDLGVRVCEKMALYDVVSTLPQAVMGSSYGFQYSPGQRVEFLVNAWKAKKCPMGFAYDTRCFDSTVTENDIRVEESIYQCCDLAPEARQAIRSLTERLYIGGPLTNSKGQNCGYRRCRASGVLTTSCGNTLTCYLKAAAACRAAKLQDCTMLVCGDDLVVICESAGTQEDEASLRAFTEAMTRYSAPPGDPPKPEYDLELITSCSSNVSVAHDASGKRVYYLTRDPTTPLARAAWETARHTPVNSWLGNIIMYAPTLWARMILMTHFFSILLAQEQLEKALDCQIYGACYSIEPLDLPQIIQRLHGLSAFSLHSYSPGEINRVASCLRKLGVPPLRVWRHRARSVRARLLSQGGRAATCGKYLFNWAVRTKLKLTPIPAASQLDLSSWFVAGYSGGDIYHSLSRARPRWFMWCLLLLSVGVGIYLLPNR

How the values were obtained:
[1] = tested on: HCV replicon RNA in replicon cells (Huh-7); test: HCV Replicon Assay (reduction of HCV RNA, QuantiGene); format: cell-based, Hepatitis C virus; settings: Huh-7 replicon cells, 3 days at 37° C.; for EC50: read-out: HCV Replicon (EC50), first part of Table 1 (scaffold drawing 18)
Experimental: The anti-HCV activity of the quinoxaline derivatives was tested by replicon and BVDV cell-line based assays. The HCV NS5B polymerase activity was tested as described below, and was further tested for its capability of inhibition of replication of the hepatitis C virus in a cell-line based HCV replicon assay as described in V. Lohmann, F. Komer, J.-O. Koch, U. Herian, L. Theilmann, R. Bartenschlager, “Replication of a Subgenomic Hepatitis C virus RNAs in a Hepatoma Cell Line”, Science, 1999, 285:110.
HCV Replicon Assay. The replicon cells (Huh-7) contain replicating HCV replicon RNA, which was modified in the structural region (replacing the structural region with a neomycin resistance marker). Survival of the replicon cells under G418 selection relies on the replication of HCV RNA and subsequently expression of neomycin phosphoryltransferase. The ability of modified nucleoside libraries and compounds to suppress HCV RNA replication was determined using the QuantiGene™ Assay Kit (Bayer Diagnostics, Tarrytown N.Y.). The assay measures the reduction of HCV RNA molecules in the treated cells. Replicon cells were incubated at 37° C. for 3 days in the presence of nucleoside libraries and compounds before being harvested for detection. The assay protocol was modified based on literature procedure (V. Lohmann, F. Komer, J. O. Koch, U. Herian, L. Theilmann, R. Bartenschlager, Science, 1999, 285, 110–113). The HCV subgenomic replicon cell line was provided by Dr. R. Bartenschlager.

[2] = biological target: HCV NS5B polymerase (Hepatitis C virus genotype 1b, UniProt Q9WMX2); test: De novo RNA synthesis activity assay for HCV NS5B polymerase; format: biochemical, HCV-1b CON1 strain; settings: NS5B 250 nM, 23C, 1 hr; for IC50: read-out: HCV NS5B (IC50), first part of Table 1 (scaffold drawing 18)
Excerpt: HCV NS5B was derived from a cDNA clone encoding HCV-1b CON1 strain, and was expressed and purified from E. coli. Various [α-^33P]rNTPs (3000 Ci/mmol) were purchased from Perkin Elmer. 3′-Deoxy ribonucleosides, their 5′-triphosphates and dinucleotide primers were from Sigma, TriLink (San Diego, Calif.) or ICN Biochemicals. All other reagents were of the highest grade available from ICN, Sigma, Fisher, or Ambion.
An HCV mini-genome of 2.1-kb contains an entire 5′-UTR (untranslated region), part of NS5B sequence and an entire 3′-UTR was constructed from an internal deletion between two KpnI sites on the HCV replicon plasmid, pFK389/NS3-3′. To generate the in vitro transcribed mini-genome RNA, the plasmid DNA was linearized with AseI and ScaI and transcribed in vitro using a MegaScript kit (Ambion, Austin, Tex.). After phenol-chloroform extraction and isopropanol precipitation, the RNA was resuspended in RNase-free water and stored at −80° C. before use. This HCV strain CON1-based template was used for the standard NS5B-catalyzed RNA synthesis assay.
A standard NS5B activity assay was performed at 23C in a total volume of 25 μl. The reaction buffer contained 50 mM Tris, pH 7.0, 10 mM MgCl2, 50 mM NaCl, 5 mM DTT (add fresh) and 0.05 mg/ml BSA. 0.4 μg of the RNA template was incubated with NS5B enzyme (250 nM) before adding a mixture of radiolabeled nucleotide (0.2 μCi) and cold nucleotide cocktail to initiate a reaction. The assay was incubated for 1 hr and terminated by addition of 75 μl of 5% trichloroacetic acid (TCA) and 0.05% pyrophosphate solution. The quenched solution was incubated at room temperature for 10 min to precipitate out polymeric products and subsequently transferred to a 96-well white GF/B filter microplate (Packard Instrument) using a Packard Filtermate Universal Harvester. The filter plate was washed five times by water and one time by ethanol before vacuum drying. 40 μl of liquid scintillation cocktail (Packard MicroSint™) was added to each well. Radioactivity incorporated into the product was counted in a 96-well format using a Packard TopCount. IC50 values, defined as the inhibitor concentration to suppress 50% of NS5B activity, were determined by varying the compound concentration. The results in Table 1 are data obtained using the HCV NS5B assays described above.

SMILES | EC50 [1] [µM] | IC50 [2] [µM] | IC50 ([1]; read-out: HCV Replicon (IC50), second part of Table 1 (scaffold drawing 19)) [µM] | EC50 ([2]; read-out: HCV NS5B (EC50), second part of Table 1 (scaffold drawing 19)) [µM]
O=C(N[C@@H](Cc1c[nH]c2ccccc12)C(=O)O)c1ccc2nc(-c3ccc(F)cc3)c(-c3ccc(F)cc3)nc2c1 | > 50 | < 10 |  | 
COC(=O)[C@H](Cc1c[nH]c2ccccc12)NC(=O)c1ccc2nc(-c3ccc(F)cc3)c(-c3ccc(F)cc3)nc2c1 | 10 to 50 | > 50 |  | 
O=C(O)c1ccc2nc(-c3ccc(F)cc3)c(-c3ccc(F)cc3)nc2c1 |  |  | > 50 | < 10
NC(=O)[C@H](Cc1c[nH]c2ccccc12)NC(=O)c1ccc2nc(-c3ccc(F)cc3)c(-c3ccc(F)cc3)nc2c1 | 10 to 50 | < 10 |  | 
